Pooled drug test results. Numbers come from NIAID ChemDB, via PubChem.

All rows: growth or infection tests; agent: HIV-1

Blank or dashed fields: not listed here. ECn is the concentration giving n% inhibition of infection, replication or growth. Conditions beyond the fields shown may differ between rows.

structure | conditions | changes | strain | method | endpoint | cells | value
Cc1cc(C)cc([C@]23SCCN2C(=O)c2ccccc23)c1 | - | - | IIIB | p24 / ELISA | EC50 | PBMC | 0.016 µM
CCC[C@@]1(CCc2ccccc2)CC(O)=C([C@H](CC)c2cccc(NS(=O)(=O)c3ccc(C(F)(F)F)cn3)c2)C(=O)O1 | - | - | 472 clinical isolates AZT-resistant | p24 | EC90 | PBMC | 0.03 µM
CCN(C)C(C)(C)c1nc(C(=O)NCc2ccc(F)cc2)c(O)c(=O)[nH]1 | 10% FBS | - | IIIB | p24 | EC50 | MT-4 | <0.12 µM
CN(C)CCCNc1nc(N)nc2c1ncn2CCOCP(=O)(O)O | - | - | IIIB | cytopathic effect / MTT | EC50 | MT-4 | 6.12 µg/mL
CN1C(=O)N(Cc2ccccc2)S(=O)(=O)c2cscc21 | - | RT-Y188H | - | syncytia | EC50 | CEM | >324 µM
CCc1cc(NCc2nc3c(Cl)ccc(Cl)c3o2)c(=O)[nH]c1C | - | - | RUTZ | p24 | EC95 | MT-4 | 0.1 µM
N#CCN1C(=O)N(Cc2ccccc2)S(=O)(=O)c2cscc21 | - | RT-L100I | - | syncytia | EC50 | CEM | 7.8 µM
Nc1ncnc2c1ncn2CCOCP(=O)(O)O | - | - | IIIB | cytopathic effect / MTT | EC50 | MT-4 | >4 µg/mL
O=C(N[C@H]1c2ccccc2OC[C@H]1O)[C@H](Cc1cccnc1)C[C@H](O)CN1CCN(Cc2ccn(-c3cccc(F)c3)c2)C[C@H]1C(=O)NCC(F)(F)F | - | PR-L10I M46I I54V Q58E L63P I64V V77I V82F I84V L90M I93L | K-60C Clinical isolate | p24 | EC50 | MT-4 | <0.031 µM
C[C@H](C[n+]1c[nH]c2c(N(C)C)nc(N)nc21)OCP(=O)(O)O | - | - | IIIB | cytopathic effect / MTT | EC50 | CEM | 10 µg/mL
Cc1cn([C@H]2C[C@H](N=[N+]=[N-])[C@@H](CO)O2)c(=O)[nH]c1=O | - | - | CLADE A | p24 | EC50 | PBL | 0.001 µM
CC(C)Nc1cccnc1N1CCN(C(=O)c2cc3cc(NS(C)(=O)=O)ccc3[nH]2)CC1 | - | - | 6 clinical isolates AZT-resistant | p24 | EC50 | PBMC | <0.1 µM
CN1CCN=C(c2ccccc2)c2cc(Cl)ccc21 | - | - | LAV | - | EC50 | MT-4 | >100 µg/mL
CCC(C)Nc1nc(N)nc2c1ncn2CCOCP(=O)(O)O | - | - | IIIB | cytopathic effect / MTT | EC50 | CEM | 3 µg/mL
Nc1nc2c(ncn2CCOCP(=O)(O)O)c(=O)[nH]1 | - | - | IIIB | - | EC50 | PBMC + H-PBMC | 0.3 µM
c1cc(CN2CCCNCCNCCCNCC2)ccc1CN1CCCNCCNCCCNCC1 | - | - | IIIB X4 | antigen | EC50 | PBMC | 0.002 µg/mL
CN(C)C(c1ccccc1)c1nc(C(=O)NCc2ccc(F)cc2)c(O)c(=O)[nH]1 | 10% FBS | - | IIIB | p24 | EC50 | MT-4 | <0.31 µM
O=C(N[C@H]1c2ccccc2OC[C@H]1O)[C@H](Cc1cccnc1)C[C@H](O)CN1CCN(Cc2ccn(-c3ccccc3)c2)C[C@H]1C(=O)NCC(F)(F)F | - | PR-L10I M46I I54V Q58E L63P I64V V77I V82F I84V L90M I93L | K-60C Clinical isolate | p24 | EC50 | MT-4 | <0.031 µM
CC[C@@H](c1ccc(C(F)(F)F)cc1)N1CCN(C2(C)CCN(C(=O)c3c(C)ncnc3C)CC2)C[C@@H]1C | - | - | RU570 Clinical isolates | - | EC50 | PBMC | <1 µM
CCc1cc(NCc2nc3c(C)ccc(C)c3o2)c(=O)[nH]c1C | - | - | WMJ-2 | p24 | EC95 | MT-4 | 0.1 µM
Cc1cc2c(cc1S(N)(=O)=O)S(=O)(=O)CCC2 | - | - | LAV | - | EC50 | MT-4 | >100 µg/mL
O=c1[nH]cnc2c1ncn2[C@H]1CC[C@@H](CO)O1 | - | RT-M41L Y181C T215Y | HXB2 | plaque count | EC50 | HT4 + HT4 LacZ-1 | 0.6 µM
CCN1C(=O)N(Cc2cccc(Cl)c2)S(=O)(=O)c2cscc21 | - | - | IIIB | syncytia | EC50 | MT-4 | 2.5 µM
O=c1[nH]cnc2c1ncn2C1CC[C@@H](CO)O1 | - | L74V | - | p24 / ELISA | EC90 | Primary T lymphocytes | 80.9 µM
CN1CCN(C)C(C)(c2nc(C(=O)NCc3ccc(F)cc3)c(O)c(=O)[nH]2)C1 | 10% FBS | - | IIIB | p24 | EC50 | MT-4 | <0.06 µM
CC(=O)N1CCC(C(=O)N(CCCN2CCC(Cc3ccc(C(N)=O)cc3)CC2)c2ccc(C)c(Cl)c2)CC1 | - | - | R5 subtype B_10 recombinant | luciferase | EC50 | U87 (CD4+ CCR5+) + U87 | 0.034 µM
C[C@H](Cn1cnc2c(N)ncnc21)OCP(=O)(O)O | - | - | IIIB | - | EC50 | MT-4 | 5.9 µM
Cc1cn([C@H]2C[C@H](N=[N+]=[N-])[C@@H](CO)O2)c(=O)[nH]c1=O | - | - | D79 | p24 / ELISA | EC50 | PBMC | 0.022 µM
Cc1ncnc(C)c1C(=O)N1CCC(C)(N2CCN([C@@H](Cc3ccccc3)c3ccc(C(F)(F)F)cc3)[C@@H](C)C2)CC1 | - | - | RU570 Clinical isolates | - | EC90 | PBMC | 0.004 µM
O=C(NCc1ccc(F)cc1)c1nc(C2CCCNC2)[nH]c(=O)c1O | 50% human serum | - | IIIB | p24 | EC95 | MT-4 | >10 µM
Cc1cccc(-n2ccc(CN3CCN(C[C@@H](O)C[C@@H](Cc4cccnc4)C(=O)N[C@H]4c5ccccc5OC[C@H]4O)[C@H](C(=O)NCC(F)(F)F)C3)c2)c1 | - | PR-L10I M46I I54V Q58E L63P I64V V77I V82F I84V L90M I93L | K-60C Clinical isolate | p24 | EC50 | MT-4 | <0.031 µM
CO[P@](=O)(c1cc(C)cc(/C=C/C#N)c1)c1c(C(N)=O)[nH]c2ccc(Cl)c(F)c12 | - | K103N/Y181C | Clinical isolate | - | EC50 | MT-2 | 0.002 µM
COc1ccc(Cc2nc(C(=O)NCc3ccc(F)cc3)c(O)c(=O)[nH]2)cc1OC | 10% FBS | - | IIIB | p24 | EC95 | MT-4 | >10 µM
CN1CCCC(CC2c3ccccc3Sc3ccccc32)C1 | - | - | LAV | - | EC50 | MT-4 | >100 µg/mL
N#Cc1cccc(-n2ccc(CN3CCN(C[C@@H](O)C[C@@H](Cc4cccnc4)C(=O)N[C@H]4c5ccccc5OC[C@H]4O)[C@H](C(=O)NCC(F)(F)F)C3)c2)c1 | - | PR-L10I N37S R41K M46I I54V I62V L63P A71V V77I V82A L90M I93L | Q-60C Clinical isolate | p24 | EC95 | MT-4 | 0.031 µM
O=C1CN=C(c2ccc[nH]2)c2cc(Cl)ccc2N1 | - | - | IIIB/LAI | antigen | EC50 | HUT-78/IIIB/LAI + HUT 78 | >1 µM
N#CC[C@H](C1CCCC1)n1cc(-c2ncnc3[nH]ccc23)cn1 | - | - | LAI | p24 / ELISA | EC50 | Primary T lymphocytes | 0.3 µM
CC(C)CN1CCCCC1c1nc(C(=O)NCc2ccc(F)cc2)c(O)c(=O)[nH]1 | 10% FBS | - | IIIB | p24 | EC95 | MT-4 | 1 µM
N#CCN1C(=O)N(Cc2cccc(F)c2)S(=O)(=O)c2cscc21 | - | - | IIIB | syncytia | EC50 | MT-4 | 0.09 µM
Cc1cn([C@H]2C[C@H](N=[N+]=[N-])[C@@H](CO)O2)c(=O)[nH]c1=O | - | K65R | - | p24 / ELISA | EC50 | Primary T lymphocytes | 0.04 µM
C[N+]1(C)CCCC(OC(=O)C(O)(c2ccccc2)c2ccccc2)C1 | - | - | LAV | - | EC50 | MT-4 | >100 µg/mL

Again, the opening 5 rows:

structure | conditions | changes | strain | method | endpoint | cells | value
Cc1cc(C)cc([C@]23SCCN2C(=O)c2ccccc23)c1 | - | - | IIIB | p24 / ELISA | EC50 | PBMC | 0.016 µM
CCC[C@@]1(CCc2ccccc2)CC(O)=C([C@H](CC)c2cccc(NS(=O)(=O)c3ccc(C(F)(F)F)cn3)c2)C(=O)O1 | - | - | 472 clinical isolates AZT-resistant | p24 | EC90 | PBMC | 0.03 µM
CCN(C)C(C)(C)c1nc(C(=O)NCc2ccc(F)cc2)c(O)c(=O)[nH]1 | 10% FBS | - | IIIB | p24 | EC50 | MT-4 | <0.12 µM
CN(C)CCCNc1nc(N)nc2c1ncn2CCOCP(=O)(O)O | - | - | IIIB | cytopathic effect / MTT | EC50 | MT-4 | 6.12 µg/mL
CN1C(=O)N(Cc2ccccc2)S(=O)(=O)c2cscc21 | - | RT-Y188H | - | syncytia | EC50 | CEM | >324 µM